Pooled drug test results. Numbers come from NIAID ChemDB, via PubChem.

All rows: host cell toxicity; measure: CC50

Blank or dashed fields: not listed here.

compound | method | cell line | result
CCN(CC)C(=O)OCC1CN(C(=O)c2cc(OC)c(OC)c(OC)c2)CCN1C(c1ccccc1)c1ccccc1 | neutral red | MDM | ≥100 µM
CCCNCc1ccc(OCC(=O)OCC)cc1 | - | BJ | >20 µM
Cc1cc(NC(=O)NCCc2ccc3c(n2)NCCC3)c(C(F)(F)F)o1 | - | PBMC | 50 µM
O=C(CNC(=O)c1ccccc1)N[C@@H](Cc1ccccc1)C(=O)N1CCCC1C(=O)Nc1ccccc1 | - | TZM-gfp | >50 µM
CC1(C)CC[C@@]2(C(=O)NCc3cn(CCCCCCn4cc(CNC(=O)[C@]56CCC(C)(C)CC5C5=CCC7[C@@]8(C)CC[C@H](O)C(C)(C)C8CC[C@@]7(C)[C@]5(C)C[C@H]6O)nn4)nn3)C(C1)C1=CCC3[C@@]4(C)CC[C@H](O)C(C)(C)C4CC[C@@]3(C)[C@]1(C)C[C@H]2O | resazurin | 293T | >100 µM
Cc1cc(NCCN2CCOCC2)c2ccc3c(ccc4c(NCCN5CCOCC5)cc(C)nc43)c2n1 | MTT | Macrophage line RAW 264.7 | 0.00593 µM
Cc1cn(CC(=O)N[C@@H](Cc2ccccc2)C(=O)N(C)c2cccc(C(F)(F)F)c2)c(=O)[nH]c1=O | XTT | TZM-gfp | >50 µM
COc1cc(F)cc(-c2ccc(C(=O)N(Cc3cccc(OCCCCCC(=O)OC(=O)O)c3)C(C)C)cc2)c1 | - | RAJI | >20 µM
CCN(CC)C(=O)OCC1CN(C(=O)c2ccncc2)CCN1C(=O)c1ccncc1 | neutral red | MDM | >100 µM
O=c1cc(-c2ccc3ncccc3c2)c2cccnc2n1O | - | HeLa | <100 µM
COC(=O)N[C@H](C(=O)NCCN[C@@H]1CNC[C@H]1N(CCC(C)C)S(=O)(=O)c1ccc(CO)cc1)C(c1ccccc1)c1ccccc1 | microscopy | T lymphoid cells | >10 µM
CCN(CC)C(=O)OCC1CN(Cc2cc(OC)c(OC)c(OC)c2)CCN1Cc1cc(OC)c(OC)c(OC)c1 | neutral red | MDM | >10 µM
O=C(NCCc1ccc2c(n1)NCCC2)Nc1ccc(F)nc1 | - | PBMC | 27 µM
CN(C(=O)[C@H](Cc1ccccc1)NC(=O)CNC(=O)c1ccccc1)c1cccc(Br)c1 | XTT | TZM-gfp | >50 µM
O=c1c(-c2ccccc2)c(O)c2cc(S(=O)(=O)Nc3ccccc3)cnc2n1O | - | HeLa | <100 µM
CCCc1nc(-c2ccc(OCCC(C)CCN3CCN(c4ccncc4)C3=O)cc2)no1 | - | RD | >12.5 µM
CN(C(=O)[C@H](Cc1ccccc1)NC(=O)CC1NC(=O)NC1=O)c1cccc(F)c1 | XTT | TZM-gfp | >50 µM
COC(=O)N[C@H](C(=O)NCCC[C@@H]1CNC[C@H]1N(CCC(C)C)S(=O)(=O)c1ccc(N)cc1)C(c1ccccc1)c1ccccc1 | microscopy | T lymphoid cells | >10 µM
O=C1N(CCN(CCOc2ccc(-c3ccc(Cl)cc3)cc2)Cc2ccccc2)CCN1c1ccncc1 | - | RD | >5 µM
CC1(C)CC[C@@]2(C(=O)NCc3cn(Cc4ccccc4Cn4cc(CNC(=O)[C@]56CCC(C)(C)CC5C5=CCC7[C@@]8(C)CC[C@H](O)C(C)(C)C8CC[C@@]7(C)[C@]5(C)C[C@H]6O)nn4)nn3)C(C1)C1=CCC3[C@@]4(C)CC[C@H](O)C(C)(C)C4CC[C@@]3(C)[C@]1(C)C[C@H]2O | resazurin | 293T | >100 µM
O=C(NCC1CCc2ccccc2N1)Nc1ccc(C(F)(F)F)cc1 | - | PBMC | 50 µM
COC(=O)N[C@H](C(=O)NC(C)CN[C@@H]1CNC[C@H]1N(CCC(C)C)S(=O)(=O)c1ccc(N)cc1)C(c1ccccc1)c1ccccc1 | microscopy | T lymphoid cells | >10 µM
CCCN(Cc1cccc(OCCCCCC(=O)O)c1)C(=O)c1ccc(-c2ccc3c(c2)OCO3)cc1 | - | HEK 293 | >20 µM
OC(Cn1cncn1)(Cn1cncn1)c1ccc(F)cc1F | MTT | 293T | >400 µM
COC(=O)N[C@H](C(=O)NCCN[C@@H]1CNC[C@H]1N(CCC(C)C)S(=O)(=O)c1ccc(N)cc1)C(c1ccccc1)c1ccccc1 | microscopy | T lymphoid cells | >10 µM
O=c1cc(NC2CCN(Cc3ccccc3)CC2)c2cccnc2n1O | - | HeLa | <100 µM
CCC(CN[C@@H]1CNC[C@H]1N(CCC(C)C)S(=O)(=O)c1ccc(N)cc1)NC(=O)[C@@H](NC(=O)OC)C(c1ccccc1)c1ccccc1 | microscopy | T lymphoid cells | >10 µM
NC(=O)NCCc1ccc2c(n1)NCCC2 | - | PBMC | 50 µM
CCN(CC)C(=O)OCC1CNCCN1C(=O)c1cc(OC)c(OC)c(OC)c1 | neutral red | MDM | >100 µM
O=C1N(CCC(CCOc2ccc(-c3ccc(Cl)cc3)cc2)c2ccccc2)CCN1c1ccncc1 | - | RD | >25 µM
CCN(CC)C(=O)OCC1CN(Cc2ccccc2)CCN1C(=O)c1cc(OC)c(OC)c(OC)c1 | neutral red | MDM | >100 µM
COC(=O)N[C@H](C(=O)NCCN(C)[C@@H]1CNC[C@H]1N(CCC(C)C)S(=O)(=O)c1ccc(N)cc1)C(c1ccccc1)c1ccccc1 | microscopy | T lymphoid cells | >10 µM
COc1cc(NC(=O)Cc2cn(OC)c3ccccc23)cc(OC)c1 | luminescence | HEK293T | >30 µM
CCN(CC)C(=O)OCC1CN(C(=O)c2ccccc2)CCN1C(=O)c1ccccc1 | neutral red | MDM | >100 µM
S=C(NCCc1ccc2c(n1)NCCC2)NC1Cc2ccccc2C1 | - | PBMC | 2.4 µM
O=c1cc(NC2CCN(c3ccccc3)CC2)c2cccnc2n1O | - | HeLa | 0.27 µM
CCN(CC)C(=O)OCC1CN(Cc2ccccc2)CCN1Cc1ccccc1 | neutral red | MDM | ≥100 µM
O=c1cc(OCc2ccc(I)cc2)oc2ccc(OCc3cccc(Cl)c3)c(O)c12 | MTT | Hs27 | >50 µM
Cc1ccc(NC(=O)NCCSCc2ccc(CNC(C)C)o2)cc1Cl | - | MAGI | >100 µM
O=C1N(Cc2ccccc2COc2ccc(-c3ccc(Cl)cc3)cc2)CCN1c1ccncc1 | - | RD | >1.25 µM
COC(=O)CCCC1=NCCc2cc(OC)c(OC)cc21 | - | RAJI | <7.5 µM
O=c1cc(OCc2cccc(I)c2)oc2ccc(OCc3cccc(Cl)c3)c(O)c12 | MTT | Hs27 | >50 µM

The last 5 rows once more:

{"compound": "O=c1cc(OCc2ccc(I)cc2)oc2ccc(OCc3cccc(Cl)c3)c(O)c12", "method": "MTT", "cell line": "Hs27", "result": ">50 µM"}
{"compound": "Cc1ccc(NC(=O)NCCSCc2ccc(CNC(C)C)o2)cc1Cl", "cell line": "MAGI", "result": ">100 µM"}
{"compound": "O=C1N(Cc2ccccc2COc2ccc(-c3ccc(Cl)cc3)cc2)CCN1c1ccncc1", "cell line": "RD", "result": ">1.25 µM"}
{"compound": "COC(=O)CCCC1=NCCc2cc(OC)c(OC)cc21", "cell line": "RAJI", "result": "<7.5 µM"}
{"compound": "O=c1cc(OCc2cccc(I)c2)oc2ccc(OCc3cccc(Cl)c3)c(O)c12", "method": "MTT", "cell line": "Hs27", "result": ">50 µM"}

CCn: concentration that lowers growth or viability of the cells by n%. Rows are shuffled and stem from different studies.